PubChem BioAssay AID624099, ICCB-Longwood, 2012
Purpose: 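Host factors E2 relies on to silence an HPV18 LCR reporter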 (primary screen). Cell system: human C33A cervical carcinoma cells (HPV-negative) stably expressing BPV1 E2 and an HPV18 LCR luciferase reporter. Reagents: siRNA pool against human genes, 40 nM. Duration: 72 h. Read-out: 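Per-well luciferase luminescence, z-scored on each plate against the plate mean and SD with control wells left out, then averaged across three replicate plates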. Scale: mean z-score and z-score: higher = stronger reporter signal, weaker E2 silencing. Active means: 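Mean z ≥ 2 together with z ≥ 2 in two or more of the three replicates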.
The whole screen tested about 21,000 reagents; below is an unselected part. Of all reagents, 497 (2.4%) are marked active. 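Higher z means weaker E2 silencing; only reporter increases were scored, and knock-downs that hurt cell survival may mask genuine repressor factors.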

Target gene	mean z-score	z-score, replicate A	z-score, replicate B	z-score, replicate C	Call
LINC01010 (long independently transcribed non-coding RNA 1010)	0.69	0.38	0.75	0.96	inactive
CPLX1 (complexin 1)	-1.42	-1.11	-1.24	-1.9	inactive
LNP1 (leukemia NUP98 fusion partner 1)	-0.74	-0.83	-0.68	-0.69	inactive
POLR3F (RNA polymerase III subunit F)	0.31	0.32	0.34	0.25	inactive
SPACA4 (sperm acrosome associated 4)	0.76	0.56	0.87	0.84	inactive
ENOX2 (ecto-NOX disulfide-thiol exchanger 2)	0.82	0.83	0.83	0.8	inactive
GATA1 (GATA binding protein 1)	-0.97	-0.94	-0.84	-1.14	inactive
LOC389442 (retired record)	0.56	0.67	0.54	0.49	inactive
GRM1 (glutamate metabotropic receptor 1)	-0.4	-0.3	-0.28	-0.62	inactive
BDH2 (3-hydroxybutyrate dehydrogenase 2)	0.3	0.28	0.6	0.02	inactive
MRPL51 (mitochondrial ribosomal protein L51)	-0.13	0.05	-0.23	-0.2	inactive
MAP3K12 (mitogen-activated protein kinase kinase kinase 12)	0.43	0.27	0.65	0.37	inactive
CBFA2T2 (CBFA2/RUNX1 partner transcriptional co-repressor 2)	1.96	1.94	1.9	2.05	inactive
LOC401703 (U2 small nuclear RNA auxiliary factor 1 like 4 pseudogene)	-0.26	-0.48	0.21	-0.51	inactive
M1AP (meiosis 1 associated protein)	1.21	1.01	1.75	0.87	inactive
NR0B1 (nuclear receptor subfamily 0 group B member 1)	0.39	0.32	0.42	0.43	inactive
LOC402094 (retired record)	0.41	0.31	0.22	0.7	inactive
WFDC10A (WAP four-disulfide core domain 10A)	-0.25	-0.41	-0.53	0.19	inactive
TTK (TTK protein kinase)	0.05	-0.03	0.16	0.03	inactive
ZMYM4 (zinc finger MYM-type containing 4)	0.9	1.11	0.76	0.82	inactive
SLC27A4	-0.59	-0.57	-0.76	-0.43	inactive
POLR3GL (RNA polymerase III subunit GL)	0.77	0.65	0.72	0.95	inactive
OR5M8 (olfactory receptor family 5 subfamily M member 8)	0.15	0.11	0.16	0.19	inactive
BANK1 (B cell scaffold protein with ankyrin repeats 1)	-0.76	-0.72	-0.64	-0.92	inactive
CRY2 (cryptochrome circadian regulator 2)	-0.81	-1.09	-0.79	-0.55	inactive
DNAJB12 (DnaJ heat shock protein family (Hsp40) member B12)	-1.51	-1.64	-1.5	-1.38	inactive
ICMT (isoprenylcysteine carboxyl methyltransferase)	-1.37	-0.99	-1.65	-1.47	inactive
PARP10 (poly(ADP-ribose) polymerase family member 10)	0.18	0.34	-0.06	0.25	inactive
TRIM66 (tripartite motif containing 66)	-0.84	-0.96	-0.99	-0.57	inactive
WHAMMP3 (WHAMM pseudogene 3)	1.78	1.59	1.89	1.86	inactive
TMEM50B (transmembrane protein 50B)	2.01	2.25	1.83	1.96	inactive
CHRDL2 (chordin like 2)	0.66	0.66	0.7	0.63	inactive
LAS1L (LAS1 like ribosome biogenesis factor)	-0.44	-0.75	-0.41	-0.17	inactive
TEKT2 (tektin 2)	0.43	0.26	0.29	0.75	inactive
ONECUT1 (one cut homeobox 1)	0.61	0.52	0.74	0.57	inactive
NOS1AP (nitric oxide synthase 1 adaptor protein)	-1.07	-1.19	-1.06	-0.97	inactive
MAP7 (microtubule associated protein 7)	0.17	-0.04	0.13	0.41	inactive
SYMPK (symplekin scaffold protein)	-0.4	-0.39	-0.58	-0.23	inactive
OR5J2 (olfactory receptor family 5 subfamily J member 2)	0.55	0.58	0.85	0.24	inactive

6 entries from above, set out differently.
| Target gene | mean z-score | z-score, replicate A | z-score, replicate B | z-score, replicate C | Call |
| --- | --- | --- | --- | --- | --- |
| MRPL51 (mitochondrial ribosomal protein L51) | -0.13 | 0.05 | -0.23 | -0.2 | inactive |
| MAP3K12 (mitogen-activated protein kinase kinase kinase 12) | 0.43 | 0.27 | 0.65 | 0.37 | inactive |
| CBFA2T2 (CBFA2/RUNX1 partner transcriptional co-repressor 2) | 1.96 | 1.94 | 1.9 | 2.05 | inactive |
| LOC401703 (U2 small nuclear RNA auxiliary factor 1 like 4 pseudogene) | -0.26 | -0.48 | 0.21 | -0.51 | inactive |
| M1AP (meiosis 1 associated protein) | 1.21 | 1.01 | 1.75 | 0.87 | inactive |
| NR0B1 (nuclear receptor subfamily 0 group B member 1) | 0.39 | 0.32 | 0.42 | 0.43 | inactive |
